A mixed list of measured activities; the numbers were collected in NIAID ChemDB.

All rows: tests in culture; species: HIV-1; read by: p24; endpoint: EC50

Conditions beyond the fields shown may differ between rows.

structure	strain	cells	changes	conditions	result
CN1CCn2c(nc(C(=O)NCc3ccc(F)c(Br)c3)c(O)c2=O)C1(C)C		MT-4			<1 µM
CCN(CC)C(=S)SSC(=S)N(CC)CC	ADA	Macrophage + Monocytes/macrophages			>100 µM
C=C1CN(S(=O)(=O)c2ccc(C)cc2)CCCN(CCC(C)C)CCCN(S(=O)(=O)c2ccc(C)cc2)C1	NL4-3	MT-4			0.77 µM
CC(C)n1c(=O)c(O)c2n(c1=O)C(CCO)CN(Cc1ccc(F)cc1)C2=O		MT-4			<10 µM
Nc1nc(NC2CC2)c2ncn([C@H]3C=C[C@@H](CO)C3)c2n1	MSO Clinical isolate	PBMC			<0.25 µM
CC(=O)Nc1ccc(SSc2ccc(NC(C)=O)cc2C(N)=O)c(C(N)=O)c1	ADA	Monocytes/macrophages			17.5 µM
CC1(C)Oc2ccc3ccc(=O)oc3c2[C@@H](OC(=O)C23CCC(C)(C(=O)O2)C3(C)C)[C@H]1OC(=O)C12CCC(C)(C(=O)O1)C2(C)C	NL4-3	MT-4	RT-E138K		10 µM
C=C1CN(S(=O)(=O)c2ccccc2)CCCN(Cc2ccccc2)CCCN(S(=O)(=O)c2ccccc2)C1	NL4-3	MT-4			>15 µM
Nc1ncnc2c1ncn2[C@@H]1C=C(CO)[C@@H](O)[C@H]1O	A012	PBMC			0.011 µM
CC1(C)Oc2ccc3cc(CO)c(=O)oc3c2[C@@H](OC(=O)C23CCC(C)(C(=O)O2)C3(C)C)[C@H]1OC(=O)C12CCC(C)(C(=O)O1)C2(C)C	IIIB	PBMC			0.000188 µg/mL
CC(C)n1c(=O)c(O)c2n(c1=O)CCN(Cc1ccccn1)C2=O		MT-4			<10 µM
CCCCCCCCN(CC(CCCCCCCCCn1c(=O)c2c(ncn2C)n(C)c1=O)OC(C)=O)C(C)=O	JR-CSF	PBL			1 µM
CCCCCCCCCCCCCCCCCCOCCOP(=O)(O)CO[C@H](CO)Cn1cnc2c(N)ncnc21	LAI WT	MT-2	RT		0.0004 µM
O=C1c2c(O)c(=O)n(C3CCCCC3)c(=O)n2CCN1Cc1ccc(F)cc1		MT-4			<10 µM
Nc1nccc2c1ncn2[C@@H]1O[C@H](CO)[C@@H](O)[C@H]1O	A018	PBMC			0.2 µM
Cc1cc2c(c3oc(=O)cc(C)c13)[C@@H](OC(=O)C13CCC(C)(C(=O)O1)C3(C)C)[C@@H](OC(=O)C13CCC(C)(C(=O)O1)C3(C)C)C(C)(C)O2	IIIB	H9			0.12 µM
CC(C)CN(C[C@@H](O)[C@H](Cc1cc(F)cc(F)c1)NC(=O)O[C@H]1C2COC3OCC1C3C2)S(=O)(=O)c1ccc2nc(NC3CC3)sc2c1	NL4-3	MT-4			0.000018 µM
CCC(C)C(NC(=O)c1ccccc1SSc1ccccc1C(=O)NC(C(=O)O)C(C)CC)C(=O)O	ADA	Monocytes/macrophages			35 µM
CC(C)(C)OC(=O)N[C@@H](Cc1ccccc1)[C@@H](O)C[C@]1(Cc2ccccc2)NC=C(C2c3ccccc3[C@H]3NC(=O)O[C@@H]23)C1=O					<0.2 µM
O=C1c2c(O)c(=O)n(CC3CCCN(c4ncccn4)C3)c(=O)n2CCN1Cc1ccc(F)cc1		MT-4			<10 µM
Cc1cc(=O)oc2c3c(c(C(Br)Br)cc12)OC(C)(C)[C@H](OC(=O)C12CCC(C)(C(=O)O1)C2(C)C)[C@@H]3OC(=O)C12CCC(C)(C(=O)O1)C2(C)C	IIIB	PBMC			0.0215 µg/mL
Cc1ccc(S(=O)(=O)c2c(C(N)=O)[nH]c3ccc(Cl)cc23)cc1	IIIB	C8166			<0.01 µM
Nc1ccn([C@H]2CO[C@@H](CO)S2)c(=O)n1	NL4-3	PBMC	RT-M184V		9.6 µM
CC(C)=CCOc1cc(NC(=S)c2ccoc2C)ccc1Cl	NL4-3	CEM + CEM-SS			0.006 µM
CC(C)(CS(=O)(=O)[O-])[NH2+]C(=O)C(CC(F)(OC(F)(F)C(F)(OC(F)(F)C(F)(OC(F)(F)C(F)(F)C(F)(F)F)C(F)(F)F)C(F)(F)F)C(F)(F)F)C(F)(OC(F)(F)C(F)(OC(F)(F)C(F)(OC(F)(F)C(F)(F)C(F)(F)F)C(F)(F)F)C(F)(F)F)C(F)(F)F	IIIB	PBMC			7.7 µg/mL
CC1(C)NC(=O)Cn2c1nc(C(=O)NCc1ccc(F)cc1)c(O)c2=O		MT-4			<50 µM
O=C(CSc1nnnn1-c1ccccc1-c1ccccc1)Nc1ccccc1Cl		MT-4			<10 µM
CC(C)CN(C[C@@H](O)[C@H](Cc1ccccc1)NC(=O)O[C@H]1CO[C@H]2OCC[C@H]21)S(=O)(=O)c1ccc2c(c1)OCO2	NL4-3	MT-4			0.0003 µM
COc1cc2c(c3oc(=O)c(COC(C)=O)c(C)c13)[C@@H](OC(=O)C13CCC(C)(C(=O)O1)C3(C)C)[C@@H](OC(=O)C13CCC(C)(C(=O)O1)C3(C)C)C(C)(C)O2	IIIB	H9			1.5 µM
CCN(CC)C(=S)S		CEM-SS			>100 µM
Cc1cc(CNC(=O)c2nc3n(c(=O)c2O)CCN(C(C)C)CC3N(C)C(=O)C(=O)N(C)C)ccc1F		MT-4			<1 µM
Cc1ccccc1S(=O)(=O)c1c(C(N)=O)[nH]c2ccc(Cl)cc12	IIIB	C8166			<0.005 µM
CC1(C)NC(=O)n2c1nc(C(=O)NCc1ccc(F)cc1)c(O)c2=O		MT-4			<50 µM
CC1(C)Oc2ccc3cc(CC#N)c(=O)oc3c2[C@@H](OC(=O)C23CCC(C)(C(=O)O2)C3(C)C)[C@H]1OC(=O)C12CCC(C)(C(=O)O1)C2(C)C	IIIB	H9			0.0002 µM
Cc1coc(CN2CCn3c(nc(C(=O)NCc4ccc(F)cc4)c(O)c3=O)C2(C)C)n1		MT-4			<1 µM
O=C(/C=C/c1ccc(O)c2c1[C@H](C(=O)O)[C@@H](c1ccc(O)c(O)c1)O2)O[C@H](Cc1ccc(O)c(O)c1)C(=O)O	MN	H9			2 µM
Cc1cn([C@@H]2O[C@H](CO)C[C@@H]2F)c(=O)[nH]c1=O		CEM			>100 µM
N#Cc1cccc(-n2nnnc2SCC(=O)Nc2ccccc2[N+](=O)[O-])c1		MT-4			<10 µM
O=C(NCc1ccc(F)cc1)c1ncc2cccnc2c1O		MT-4		50% human serum	<6 µM
C=C1CN(S(=O)(=O)c2ccc(C)cc2)CCCN(CC2CC=CCC2)CCCN(S(=O)(=O)c2ccc(C)cc2)C1	BaL	Monocytes/macrophages			0.29 µM
Cc1cn([C@H]2C[C@H](N=[N+]=[N-])[C@@H](CO)O2)c(=O)[nH]c1=O	IIIB	H9			0.0168 µM
COC(=O)c1ccc(NC(=O)CSc2nnnn2-c2c(C)cc(C)cc2C)c(C)c1		MT-4			<10 µM
CCN1c2ncc(CSc3cc(C)nc(C)c3)cc2C(=O)Nc2c(C)ccnc21	WILD TYPE	C8166			0.00046 µM
CC1(C)Oc2c(CBr)cc3ccc(=O)oc3c2[C@@H](OC(=O)C23CCC(C)(C(=O)O2)C3(C)C)[C@H]1OC(=O)C12CCC(C)(C(=O)O1)C2(C)C	IIIB	PBMC			0.0176 µg/mL
Cc1cc(C)c(-n2nnnc2SCC(=O)Nc2ccc(S(N)(=O)=O)cc2C)c(C)c1		MT-4			<10 µM
CCCCCCCCCCCCCCCCOCCCOP(=O)(O)CO[C@H](CO)Cn1cnc2c(N)ncnc21		MT-2	RT-K65R		0.16 µM
CC(=O)N1CCn2c(nc(C(=O)NCc3ccc(F)cc3)c(O)c2=O)C(N(C)Cc2ccccc2)C1		MT-4			<1 µM
C=C1CN(S(=O)(=O)c2ccc(C)cc2)CCCN(CCC)CCCN(S(=O)(=O)c2ccc(C)cc2)C1	NL4-3	MT-4			2.39 µM
Nc1nccc2c1ncn2[C@@H]1C=C(CO)[C@@H](O)[C@H]1O	A018	PBMC			0.016 µM
Cc1cc(C)c(-n2nnnc2SCC(=O)Nc2cccc(Br)n2)c(C)c1		MT-4			<10 µM
CCN1c2ncc(CSc3cc(C)nc(C)c3)cc2C(=O)Nc2c(C)cc(F)nc21	WILD TYPE	C8166			0.001 µM
C=C(C)[C@@H]1CC[C@]2(COC(=O)CC(C)(C)CC(=O)O)CC[C@]3(C)[C@H](CC[C@@H]4[C@@]5(C)CC=CC(C)(C)[C@@H]5CC[C@]43C)[C@@H]12	IIIB	H9			11.9 µM
CC(C)CN(C[C@@H](O)[C@H](Cc1ccccc1)NC(=O)O[C@H]1C2COC3OCC1C3C2)S(=O)(=O)c1ccc2nc(NC3CC3)sc2c1	NL4-3	MT-4			0.00017 µM
C=C1CN(S(=O)(=O)c2ccc(C)cc2)CCCN(CC2CC=CCC2)CCCN(S(=O)(=O)c2ccc(C)cc2)C1	NL4-3	MT-4			0.6 µM
CC1(C)CC(NC(=O)C(=O)Nc2ccc(Cl)cc2)CC(C)(C)N1	IIIB	MT-2			6.51 µM
Cc1cccc(S(=O)(=O)c2c(C(N)=O)[nH]c3ccc(Cl)cc23)c1	IIIB	C8166			<0.005 µM
CCOCn1c(Cc2ccccc2)c(C(C)C)c(=O)[nH]c1=O	RF	C8166			0.0024 µM
Nc1ncnc2c1ncn2[C@H]1CC[C@@H](CO)O1	A012	PBMC			6.3 µM
COc1cc2c(c3oc(=O)c(CC#N)c(C)c13)[C@@H](OC(=O)C13CCC(C)(C(=O)O1)C3(C)C)[C@@H](OC(=O)C13CCC(C)(C(=O)O1)C3(C)C)C(C)(C)O2	IIIB	H9			0.11 µM
Cc1ccc(S(=O)(=O)N2CCCN(Cc3ccccc3)CCCN(S(=O)(=O)c3ccc(C)cc3)CCC2)cc1	NL4-3	MT-4			>15 µM
Cc1cn([C@H]2C=C[C@@H](CO)O2)c(=O)[nH]c1=O	MN	H9			5.84 µM
Cc1cn([C@@H]2O[C@H](CO)[C@@H](N=[N+]=[N-])[C@@H]2F)c(=O)[nH]c1=O		CEM			>100 µM
CC1(C)Oc2ccc3cc(CO)c(=O)oc3c2[C@@H](OC(=O)C23CCC(C)(C(=O)O2)C3(C)C)[C@H]1OC(=O)C12CCC(C)(C(=O)O1)C2(C)C	IIIB	H9			0.03466 µM
C=CCN(C(=O)OCc1ccc([N+](=O)[O-])cc1)C1CCN(C[C@H]2CN(C(=O)C3CCCC3)C[C@]2(O)c2ccccc2)CC1	J18 R5 MDR CLADE B	PBMC	PR-L10I M36I L63P A71T L60M RT-M41L E44D T69D V108I V118I L210W T215D		0.00076 µM
C=C1CN(S(=O)(=O)c2ccc(COCCCC)cc2)CCCN(Cc2ccccc2)CCCN(S(=O)(=O)c2ccc(COCCCC)cc2)C1	NL4-3	MT-4			>15 µM
CCCCCCCCCCCCCC(=O)OCC/C(SS/C(CCOC(=O)CCCCCCCCCCCCC)=C(\C)N(C=O)Cc1cnc(C)nc1N)=C(/C)N(C=O)Cc1cnc(C)nc1N	MN(SI/TT)	PBMC(CXCR4 CCR5) + PBMC			<12.5 µM

Again, the opening 4 rows:

structure,strain,cells,changes,conditions,result
CN1CCn2c(nc(C(=O)NCc3ccc(F)c(Br)c3)c(O)c2=O)C1(C)C,,MT-4,,,<1 µM
CCN(CC)C(=S)SSC(=S)N(CC)CC,ADA,Macrophage + Monocytes/macrophages,,,>100 µM
C=C1CN(S(=O)(=O)c2ccc(C)cc2)CCCN(CCC(C)C)CCCN(S(=O)(=O)c2ccc(C)cc2)C1,NL4-3,MT-4,,,0.77 µM
CC(C)n1c(=O)c(O)c2n(c1=O)C(CCO)CN(Cc1ccc(F)cc1)C2=O,,MT-4,,,<10 µM

ECn: concentration that inhibits the pathogen or its effect by n%. An empty or dashed field is not shown.